Results of unrelated studies side by side (data: NIAID ChemDB).

Common to all: growth or infection tests; organism: Mycobacterium tuberculosis

MIC bound comes from a single tested concentration.

smiles | strain | measure | cell line | dose | read by | result
COc1cccc(/C=C2/NC(=S)NC2=O)c1OC | H37Rv | inhibition |  | 6.25 µg/mL | BACTEC | 0%
Cc1cc2c(=O)cc(-c3ccncc3)oc2c(C(=O)O)c1C | H37Rv | inhibition |  | 12.5 µg/mL | BACTEC | -4%
Clc1ccc(-n2ncc(C(c3ccccc3)n3ccnc3)c2-c2ccccc2)cc1 | ATCC 35837 (ethambutol-resistant) | MIC50 |  |  |  | ≥100 µM
Clc1ccc(CSc2nc3ccccc3[nH]2)cc1Cl | My 331/88 | MIC |  |  |  | >62 µM
O=C(CSc1nnc(CSc2ccc(Cl)cc2)n1-c1ccccc1)NC(=O)Nc1ccccc1 | H37Rv | inhibition |  | 12.5 µg/mL | BACTEC | 0%
CC(NCCNCC1(O)CCCCC1)c1cccc2ccccc12 |  | MIC |  |  |  | 50 µM
CN(C(=O)c1ccco1)C(=S)N1CCN(c2ccccc2)CC1 | H37Rv | MIC bound |  |  | resazurin | >6.25 µg/mL
CCCCCCCCCCCCNC(CCO)C1OC2OC(C)(C)OC2[C@@H]1OC | H37Ra | MIC |  |  |  | 25 µg/mL
O=c1oc2c([N+](=O)[O-])cccc2cc1-c1cn2ccc(Br)cc2n1 | H37Rv | MIC |  |  | BACTEC | >6.25 µg/mL
Cc1ccc(S(=O)(=O)N/N=C/c2oc(-c3ccccc3Cl)c(-c3ccccc3Cl)c2[N+](=O)[O-])cc1 | H37Rv | MIC bound |  |  | BACTEC | >12.5 µg/mL
O=C(NNC(=O)c1ccncc1)c1ccncc1 |  | MIC |  |  |  | 1 µg/mL
COc1cccc(/C=N/NC(=O)CNC(=O)Nc2ccc(Cl)c(Cl)c2)c1OC | H37Rv | inhibition |  | 12.5 µg/mL | BACTEC | 17%
Cn1c(O)c(N=NC(=S)Nc2ccc(Br)cc2)c2cc(OC(F)(F)F)ccc21 | H37Rv | EC90 |  |  | broth dilution / resazurin | >100 µg/mL
COC(=O)c1ccccc1S(=O)(=O)NC(=O)Nc1nc(C)cc(C)n1 | P4145 | MIC |  |  |  | 12 µM
Cc1cccc(CSc2nc3ccccc3[nH]2)c1 | My 331/88 | MIC |  |  |  | >125 µM
Clc1ccc(-c2c(C(c3ccccc3)n3ccnc3)cnn2-c2ccc(Cl)cc2)cc1 | ATCC 27294 | MIC90 |  |  |  | 27.3 µM
NC(=O)NN=C1CSSC1 | H37Rv | inhibition |  | 12.5 µg/mL | BACTEC | 98%
O=C1NC(=S)N/C1=C\c1cccc([N+](=O)[O-])c1 | H37Rv | EC50 |  |  | BACTEC | >6.25 µg/mL
C=CCNC(=S)N=Nc1c(O)n(CN2CCOCC2)c2ccc(OC(F)(F)F)cc12 | H37Rv | EC50 |  |  | broth dilution / resazurin | 1.003 µg/mL
CCOc1ccc(/C=C2/NC(=S)NC2=O)cc1 | H37Rv | EC50 |  |  | BACTEC | <6.25 µg/mL
Nc1nc(N)c2c(-c3ccccc3)ccnc2n1 | H37Rv | inhibition |  | 6.25 µg/mL | resazurin | 57%
O=C(N/N=C/c1ccccc1O)c1cccnc1 |  | MIC |  |  |  | 100 µg/mL
Oc1[nH]c2ccc(OC(F)(F)F)cc2c1N=NC(=S)Nc1ccc(F)cc1 | H37Rv | EC50 |  |  | broth dilution / resazurin | 1.333 µg/mL
CCCCN(CCCC)c1c([N+](=O)[O-])c(=O)nc2ccccn12 | H37Rv | inhibition |  | 6.25 µg/mL | resazurin | 26%
Cc1ccn2cc(-c3cc4cc(Br)cc(Br)c4oc3=O)nc2c1 | H37Rv | MIC |  |  | BACTEC | >6.25 µg/mL
CO[C@H]1/C=C/O[C@@]2(C)Oc3c(C)c(O)c4c(O)c(c(/C=N/N5CCN(C)CC5)c(O)c4c3C2=O)NC(=O)/C(C)=C\C=C\[C@H](C)[C@H](O)[C@@H](C)[C@@H](O)[C@@H](C)[C@H](OC(C)=O)[C@@H]1C | ATCC 35828 (pyrazinamide-resistant) | MIC50 |  |  |  | 0.6 µM
CO[C@H]1/C=C/O[C@@]2(C)Oc3c(C)c(O)c4c(O)c(c(/C=N/N5CCN(C)CC5)c(O)c4c3C2=O)NC(=O)/C(C)=C\C=C\[C@H](C)[C@H](O)[C@@H](C)[C@@H](O)[C@@H](C)[C@H](OC(C)=O)[C@@H]1C | PR1370 | MIC |  |  |  | 0.04 µg/mL
CC(C)N(O)C(=O)C(=O)O | ATCC35801 | MIC |  |  |  | 1000 µM
c1ccc(CCCCNCCNCc2ccc3c(c2)OCO3)cc1 |  | MIC |  |  |  | 25 µM
O=c1oc2c(Cl)cc(Cl)cc2cc1-c1cn2ccccc2n1 | H37Rv | MIC |  |  | BACTEC | >6.25 µg/mL
CCCCCCCCCCCCCCCCSc1nc2ccccc2[nH]1 | My 331/88 | MIC |  |  |  | >125 µM
CN[C@@H]1[C@H](O[C@H]2[C@H](O[C@H]3[C@H](O)[C@@H](O)[C@H](N=C(N)N)[C@@H](O)[C@@H]3N=C(N)N)O[C@@H](C)[C@]2(O)C=O)O[C@@H](CO)[C@H](O)[C@H]1O | ATCC 35828 (pyrazinamide-resistant) | MIC90 |  |  |  | 0.3 µM
CCCCCCCCCCCCCCCCNC(CCO)[C@@H]1OC2OC(C)(C)OC2C2OC(C)(C)OC21 | H37Ra | MIC |  |  |  | 12.5 µg/mL
COc1nc(C)nc(NC(=O)NS(=O)(=O)c2ccccc2OCCCl)n1 | ATCC35801 | MIC |  |  |  | 125 µM
O=[N+]([O-])c1ccccc1CSc1nc2ccccc2[nH]1 | My 331/88 | MIC |  |  |  | 250 µM
N[C@@H]1CONC1=O | Isolate TN6515 | MIC |  |  |  | 14 µg/mL
O=c1oc2ccccc2cc1-c1cn2ccc(Br)cc2n1 | H37Rv | MIC |  |  | BACTEC | >6.25 µg/mL
O=C1NC(=S)N/C1=C/c1ccccc1Cl | H37Rv | EC50 |  |  | BACTEC | >6.25 µg/mL
CC(C)Sc1nc2ccccc2[nH]1 | My 331/88 | MIC |  |  |  | >500 µM
O=C(N/N=C/C(O)C(O)C(O)C(O)CO)c1cccnc1 |  | MIC |  |  |  | 10–100 µg/mL
CCCCNC(=S)N=Nc1c(O)[nH]c2ccc(OC(F)(F)F)cc12 | H37Rv | EC50 |  |  | broth dilution / resazurin | 5.476 µg/mL
Cc1ccc(/C=C2/NC(=S)NC2=O)cc1 | H37Rv | inhibition |  | 6.25 µg/mL | BACTEC | 26%
CCCCCCCC(=O)N1[C@H]2[C@@H]1CN1C3=C(C(=O)C(N)=C(C)C3=O)[C@@H](COC(N)=O)[C@@]21OC | H37Rv | MIC | VERO |  |  | 0.4 µg/mL
COc1ccc(/C=C2/NC(=S)NC2=O)cc1OC | H37Rv | inhibition |  | 6.25 µg/mL | BACTEC | 0%
C=CCNCCNCCCCCCCCCCC |  | MIC |  |  |  | 50 µM
NNC(=O)c1ccncc1 | Strain 23 | MIC |  |  |  | 0.06 µg/mL
CN1CCC(O)(/C=C\C(C)(C)O)CC1 | H37Rv | MIC bound |  |  | resazurin | >6.25 µg/mL
COc1ccc(CSc2nc3ccccc3[nH]2)cc1 | My 331/88 | MIC |  |  |  | 125 µM
CCCCCCCCCCCCCCCCCCNC(CCO)C1OC2OC(C)(C)OC2[C@@H]1OCc1ccccc1 | H37Ra | MIC |  |  |  | 12.5 µg/mL
Fc1ccc(-c2c(C(c3ccccc3)n3ccnc3)cnn2-c2ccccc2)cc1 | ATCC 35822 (isoniazid-resistant) | MIC50 |  |  |  | ≥100 µM
CCCCCCCC/C=C\CCCCCCC/C=N/NC(=O)c1ccncc1 |  | MIC |  |  |  | 100 µg/mL
Clc1ccc(-c2c(C(c3ccccc3)n3ccnc3)cnn2-c2ccc(Cl)cc2Cl)cc1 | ATCC 35820 (streptomycin-resistant) | MIC50 |  |  |  | ≥100 µM
O=C1NC(=S)N/C1=C/c1cccc(OCCc2ccccc2)c1 | H37Rv | inhibition |  | 6.25 µg/mL | BACTEC | 93%
Cc1ccc2c(c1)c(N=NC(=S)Nc1ccccc1Br)c(O)n2C | H37Rv | EC50 |  |  | broth dilution / resazurin | >100 µg/mL
CCCCCCCNC(CCO)[C@H]1OC2OC(C)(C)OC2C2OC(C)(C)OC21 | H37Ra | MIC |  |  |  | >100 µg/mL
CCCCCCCCCC(=O)N[C@H]1[C@H](Oc2c3cc4cc2Oc2ccc(cc2Cl)[C@@H](O[C@@H]2O[C@H](CO)[C@@H](O)[C@H](O)[C@H]2NC(C)=O)[C@@H]2NC(=O)[C@H](NC(=O)[C@@H]4NC(=O)[C@H]4NC(=O)[C@@H](Cc5ccc(c(Cl)c5)O3)NC(=O)[C@H](N)c3ccc(O)c(c3)Oc3cc(O)cc4c3)c3ccc(O)c(c3)-c3c(O[C@H]4O[C@H](CO)[C@@H](O)[C@H](O)[C@@H]4O)cc(O)cc3[C@H](C(=O)O)NC2=O)O[C@H](CO)[C@@H](O)[C@@H]1O | L1905 | MIC |  |  |  | >64 µg/mL
COc1c(N2CCNC(C)C2)c(F)cc2c(=O)c(C(=O)O)cn(C3CC3)c12 | Strain 460 | MIC |  |  |  | 0.25 µg/mL
O=C1C(Cl)=C(n2ccnc2)C(=O)c2ccccc21 | H37Rv | MIC bound |  |  | BACTEC | >12.5 µg/mL
Fc1cccc(CSc2nc3ccccc3[nH]2)c1 | My 331/88 | MIC |  |  |  | 125 µM
Cc1cc(-c2cc3c(cc2F)c(=O)c(C(=O)O)cn3C2CC2)cc(C)n1 | H37Rv | MBC |  |  |  | 16 µg/mL
CCC1CN(c2c(F)cc3c(=O)c(C(=O)O)cn(C4CC4)c3c2OC)CCN1 | Isolate TN7791 | MIC |  |  |  | 0.1 µg/mL
COc1cc(Br)cc2cc(-c3cn4ccc(C)cc4n3)c(=O)oc12 | H37Rv | MIC |  |  | BACTEC | >6.25 µg/mL
CC1COc2c(N3CCN(C)CC3)c(F)cc3c(=O)c(C(=O)O)cn1c23 | 25 strains | MIC90 |  |  |  | 0.78 µg/mL
CC1CC(O)C(=O)C(O[C@@H]2C[C@@H]3CC[C@@H]4[C@H](CC[C@]5(C)[C@@H](C6=CC(=O)OC6)CC[C@]45O)[C@@]3(C=O)CC2O)O1 | H37Rv | MIC bound |  |  | BACTEC | >12.8 µg/mL
CO[C@@H]1C(C(CCO)NC2CC2)OC2OC(C)(C)OC21 | H37Ra | MIC |  |  |  | 50 µg/mL
CC1(C)[C@H]2CC[C@@H](CNCCNCCCCc3ccccc3)[C@@H]1C2 |  | MIC |  |  |  | 50 µM
CSC(=S)N/N=C/c1cccc(C)n1 | ETA-R | MIC |  |  |  | >12.8 µg/mL
O=C(N/N=C/c1ccccn1)c1ccncc1 |  | MIC |  |  |  | 0.1 µg/mL
O=c1cc(O)n2ncnc2[nH]1 | H37Rv | MIC bound |  |  | resazurin | >6.25 µg/mL
NC(=S)c1ccc(CSc2nc3ccccc3[nH]2)cc1 | My 331/88 | MIC |  |  |  | 16 µM
O=C(N/N=C/c1ccccc1)c1cc(-c2ccccc2)nc2ccccc12 |  | MIC |  |  |  | >200 µg/mL
COc1ccc(OC)c(/C=C2/NC(=S)NC2=O)c1 | H37Rv | EC50 |  |  | BACTEC | <6.25 µg/mL
O=C(C[n+]1ccn(CC(OCc2ccc(Cl)cc2Cl)c2ccc(Cl)cc2Cl)c1)c1ccc(F)cc1 | H37Rv | inhibition |  | 6.25 µg/mL | resazurin | 97%
COc1cccc2cc(-c3cn4cc(Br)ccc4n3)c(=O)oc12 | H37Rv | inhibition |  | 6.25 µg/mL | BACTEC | 0%
O=C(NCO)NC1NC(=O)NC1=O | H37Rv | MIC bound |  |  | BACTEC | >12.5 µg/mL
O=C1CC[C@H](O)c2ccccc21 | 90-221387 | MIC |  |  |  | 6.25 µg/mL
CCN(CC)CC(O)CNc1ccc(C)c2sc3ccc(Cl)cc3c(=O)c12 | H37Rv | MIC bound |  |  | BACTEC | ≤12.5 µg/mL
Cc1ccc2[nH]c(O)c(N=NC(=S)NC3CCCCC3)c2c1 | H37Rv | EC90 |  |  | broth dilution / resazurin | 0.795 µg/mL
COc1cc2c(c3c1c(=O)c1ccc(F)cc1n3C)C=CC(C)(C)O2 | H37Rv | MIC bound |  |  | BACTEC | >12.5 µg/mL
FC(F)(F)c1cccc(CSc2nc3ccccc3[nH]2)c1 | My 331/88 | MIC |  |  |  | 62 µM
COc1cc2c(cc1OC)C1CC(OC(=O)c3ccccc3)(c3nccc4cc(OC)c(OC)cc34)CCN1CC2 | H37Rv | inhibition |  | 12.5 µg/mL | BACTEC | 48%
Cc1ccc2c(c1)c(N=NC(=S)NCc1ccccc1)c(O)n2C | H37Rv | EC90 |  |  | broth dilution / resazurin | >100 µg/mL
Clc1ccc(-c2c(C(c3ccccc3)n3ccnc3)cnn2-c2ccccc2)cc1 | ATCC 35828 (pyrazinamide-resistant) | MIC90 |  |  |  | ≥100 µM
O=c1oc2ccccc2cc1-c1cn2ccccc2n1 | H37Rv | inhibition |  | 6.25 µg/mL | BACTEC | 0%
CC1=NCCc2c1cc1c([nH]c3ccccc31)c2C | H37Rv | inhibition |  | 6.25 µg/mL | resazurin | 64%
Fc1ccc(-c2c(C(c3ccccc3)n3ccnc3)cnn2-c2ccc(F)cc2)cc1 | ATCC 35837 (ethambutol-resistant) | MIC50 |  |  |  | ≥100 µM

A second listing of 7 rows from above:

{"smiles": "COc1cccc2cc(-c3cn4cc(Br)ccc4n3)c(=O)oc12", "strain": "H37Rv", "measure": "inhibition", "dose": "6.25 µg/mL", "read by": "BACTEC", "result": "0%"}
{"smiles": "Cc1cc(-c2cc3c(cc2F)c(=O)c(C(=O)O)cn3C2CC2)cc(C)n1", "strain": "H37Rv", "measure": "MBC", "result": "16 µg/mL"}
{"smiles": "O=C1NC(=S)N/C1=C\\c1cccc([N+](=O)[O-])c1", "strain": "H37Rv", "measure": "EC50", "read by": "BACTEC", "result": ">6.25 µg/mL"}
{"smiles": "COC(=O)c1ccccc1S(=O)(=O)NC(=O)Nc1nc(C)cc(C)n1", "strain": "P4145", "measure": "MIC", "result": "12 µM"}
{"smiles": "COc1nc(C)nc(NC(=O)NS(=O)(=O)c2ccccc2OCCCl)n1", "strain": "ATCC35801", "measure": "MIC", "result": "125 µM"}
{"smiles": "FC(F)(F)c1cccc(CSc2nc3ccccc3[nH]2)c1", "strain": "My 331/88", "measure": "MIC", "result": "62 µM"}
{"smiles": "CCCCN(CCCC)c1c([N+](=O)[O-])c(=O)nc2ccccn12", "strain": "H37Rv", "measure": "inhibition", "dose": "6.25 µg/mL", "read by": "resazurin", "result": "26%"}

Conditions beyond the fields shown may differ between rows. Blank or dashed fields: not listed here. MIC50, MIC90 and the like: level of inhibition, or share of isolates inhibited. Inhibition is in % at the dose shown (toxicity tests: loss of growth or viability). Two numbers with a dash give a range or band. ECn: concentration that inhibits the pathogen or its effect by n%.